Laboratory results as given in PMC5056392, “CD4-mimetic sulfopeptide conjugates display sub-nanomolar anti-HIV-1 activity and protect macaques against a SHIV162P3 vaginal challenge” (Scientific Reports, 2016).

Key:
TZM-bl cells = assay: WST-1 cytotoxicity assay; assay type: cell-based; settings: Table 2, 50% cytotoxic concentration, WST-1, 48 h
Description: The water soluble tetrazolium-1 (WST-1) cell proliferation assay is based on the cleavage of the tetrazolium salt WST-1 to a formazan dye by a complex cellular mechanism. Because this bioreduction is dependent on the glycolytic production of NAD(P)H in viable cells, the amount of formazan dye formed is correlates directly to the number of viable cells in a culture. Quantification is done by measuring absorbance at 450 nm in a multiwell plate reader. TZMbl cells (10^4 cells/well) were plated in a 96-well plate and a serial dilution of compound was added. 48 h later, cell proliferation reagent was added and cell viability was measured compared to untreated control cultures. Cell viability was plotted against the compound concentration and non-linear regression analysis was performed to calculate the 50% cytotoxic concentration (CC50).

[1] = test system: HIV strains from different subtypes; assay: TZM-bl antiviral assay, whole panel of strains; assay type: cell-based, HIV-1; settings: average over the strains tested, TZM-bl cells
Description: The IC50 of the various mCD4-conjugates were measured in TZM-bl cells (NIH AIDS Reagent Program, Germantown, MD 20874, US). This cell line expresses high densities of CD4, CCR5 and CXCR4. It contains a luciferase reporter gene under control of HIV LTR, which will be transcribed and translated into luciferase protein, if the cells get infected with HIV and start producing Tat. Briefly, 50 μl of TZM-bl cells (1 × 10^5 cells/mL) supplemented with 30 μg/mL DEAE dextran were incubated with a 50 μl of a 10-fold serial dilution of the compounds under investigation in 96-well flat bottom plates, prior to inoculation with 50 μl of various viruses (see Tables & and 2; 50, 100 or 200 TCID50 was used depending on the virus). As a positive control, 50 μl of compound-free medium was used and as a negative control, 100 μl of medium was added to 100 μl of TZM-bl cells. All conditions were done in triplicates. The plates were incubated for 48 hours (37 °C, 5% CO2). […] Next, the luciferase activity was measured using a TriStar LB941 luminometer (Berthold Technologies GmbH & Co. KG., Bad Wildbad, Germany) and expressed in relative light units (RLU) as a percentage of positive control wells. IC50 were calculated in GraphPad Prism 5.03 using non-linear regression (GraphPad Software, San Diego, CA, USA).

HIV-1 NL4.3 = assay type: cell-based; settings: primary CD4 T cells infected with NL4.3, co-culture with autologous target cells, Gag+ targets by flow cytometry
Description: Primary CD4^+ T cells were purified from human peripheral blood by positive selection (Miltenyi). About 98% of cells were CD4^+CD3^+. For activation, primary T cells were treated with PHA (1 μg/ml) for 24 h and then cultured with IL-2 (50 IU/ml) for 3–5 days before use. Primary cells were infected with HIV-1 NL4-3 and NLAD8 as described. Donor cells were used a few days later, when about 20% of the cells were Gag^+. Target cells were labeled with FarRed (2.5 μM; Molecular Probes). Donors were preincubated 1 h with the indicated doses of compounds. Donor and target cells were then mixed at a 1:2 ratio in 96-well plates at a final a concentration of 1.5 × 10^6/ml in 200 μl, in duplicates. After 48 or 72 h, cells were stained for intracellular Gag (KC57 mAb, Coulter) and analyzed by flow cytometry. When used, mCD4 or mCD4-conjugates were added 1 h before coculture. Measurement of the levels of Env epitopes at the surface of infected cells with 3BNC117 was performed by flow cytometry as previously described.

HIV-1 MP568 (CRF02) = assay type: cell-based; settings: Table 2; AG-R5; 10^-3 MOI, TZM-bl cells, 48 h; mean of at least 2 independent experiments, triplicates
Description: (§1) The IC50 of the various mCD4-conjugates were measured in TZM-bl cells (NIH AIDS Reagent Program, Germantown, MD 20874, US). This cell line expresses high densities of CD4, CCR5 and CXCR4. It contains a luciferase reporter gene under control of HIV LTR, which will be transcribed and translated into luciferase protein, if the cells get infected with HIV and start producing Tat. Briefly, 50 μl of TZM-bl cells (1 × 10^5 cells/mL) supplemented with 30 μg/mL DEAE dextran were incubated with a 50 μl of a 10-fold serial dilution of the compounds under investigation in 96-well flat bottom plates, prior to inoculation with 50 μl of various viruses (see Tables & and 2; 50, 100 or 200 TCID50 was used depending on the virus). As a positive control, 50 μl of compound-free medium was used and as a negative control, 100 μl of medium was added to 100 μl of TZM-bl cells. All conditions were done in triplicates. The plates were incubated for 48 hours (37 °C, 5% CO2). Subsequently, 120 μL of supernatants were removed, 75 μl of the luciferase substrate Steadylite (Perkin Elmer, Life Sciences, Zaventem, Belgium) were added to the wells and the plates were incubated at room temperature on an orbital shaker for 10 minutes. Next, the luciferase activity was measured using a TriStar LB941 luminometer (Berthold Technologies GmbH & Co. KG., Bad Wildbad, Germany) and expressed in relative light units (RLU) as a percentage of positive control wells. IC50 were calculated in GraphPad Prism 5.03 using non-linear regression (GraphPad Software, San Diego, CA, USA).

HIV-1 VI1888 (CRF01) = assay type: cell-based; settings: Table 2; AE-R5; 10^-3 MOI, TZM-bl cells, 48 h; mean of at least 2 independent experiments, triplicates
Description: as §1

HIV-1 VI820 = assay type: cell-based; settings: Table 2; A-X4R5; 10^-3 MOI, TZM-bl cells, 48 h; mean of at least 2 independent experiments, triplicates
Description: as §1

HIV-1 Bal = assay type: cell-based; settings: Table 2; B-R5; 10^-3 MOI, TZM-bl cells, 48 h; mean of at least 2 independent experiments, triplicates
Description: as §1

HIV-1 SF162 = assay type: cell-based; settings: Table 2; B-R5; 10^-3 MOI, TZM-bl cells, 48 h; mean of at least 2 independent experiments, triplicates
Description: as §1

HIV-1 MN = assay type: cell-based; settings: Table 2; B-X4; 10^-3 MOI, TZM-bl cells, 48 h; mean of at least 2 independent experiments, triplicates
Description: as §1

HIV-1 pWITO.c/2474 = assay type: cell-based; settings: Table 2; T/F B-R5; 10^-3 MOI, TZM-bl cells, 48 h; mean of at least 2 independent experiments, triplicates
Description: as §1

HIV-1 Ca10-3 (CRF01) = assay type: cell-based; settings: Table 2; AE-X4; 10^-3 MOI, TZM-bl cells, 48 h; mean of at least 2 independent experiments, triplicates
Description: as §1

HIV-1 pTHRO.c/2626 = assay type: cell-based; settings: Table 2; T/F B-R5; 10^-3 MOI, TZM-bl cells, 48 h; mean of at least 2 independent experiments, triplicates
Description: as §1

HIV-1 p246F10 = assay type: cell-based; settings: Table 2; T/F C-R5; 10^-3 MOI, TZM-bl cells, 48 h; mean of at least 2 independent experiments, triplicates
Description: as §1

HIV-1 pZM247Fv2 = assay type: cell-based; settings: Table 2; T/F C-R5; 10^-3 MOI, TZM-bl cells, 48 h; mean of at least 2 independent experiments, triplicates
Description: as §1

HIV-1 IIIB = assay type: cell-based; settings: Table 2; B-X4; 10^-3 MOI, TZM-bl cells, 48 h; mean of at least 2 independent experiments, triplicates
Description: as §1

HIV-1 VI829 = assay type: cell-based; settings: Table 2; C-R5; 10^-3 MOI, TZM-bl cells, 48 h; mean of at least 2 independent experiments, triplicates
Description: as §1

HIV-1 VI824 = assay type: cell-based; settings: Table 2; D-R5; 10^-3 MOI, TZM-bl cells, 48 h; mean of at least 2 independent experiments, triplicates
Description: as §1

HIV-1 pREJO.c/2864 cl2 = assay type: cell-based; settings: Table 2; T/F B-R5; 10^-3 MOI, TZM-bl cells, 48 h; mean of at least 2 independent experiments, triplicates
Description: as §1

SHIV162P3 = assay type: cell-based, SHIV; settings: Table 2; B-R5; 10^-3 MOI, TZM-bl cells, 48 h; mean of at least 2 independent experiments, triplicates
Description: as §1

[2] = 48 h, read-out: IC50 (nM) 48h, cell-cell transmission
[3] = 72 h, read-out: IC50 (nM) 72h, cell-cell transmission

Structure (SMILES) | CC50 (TZM-bl cells) | average decrease in IC50 relative to parent mCD4.1 [1] | IC50 (HIV-1 NL4.3; [2]) | IC50 (HIV-1 NL4.3; [3]) | IC50 (HIV-1 MP568 (CRF02)) | IC50 (HIV-1 VI1888 (CRF01)) | IC50 (HIV-1 VI820) | IC50 (HIV-1 Bal) | IC50 (HIV-1 SF162) | IC50 (HIV-1 MN) | IC50 (HIV-1 pWITO.c/2474) | IC50 (HIV-1 Ca10-3 (CRF01)) | IC50 (HIV-1 pTHRO.c/2626) | IC50 (HIV-1 p246F10) | IC50 (HIV-1 pZM247Fv2) | IC50 (HIV-1 IIIB) | IC50 (HIV-1 VI829) | IC50 (HIV-1 VI824) | IC50 (HIV-1 pREJO.c/2864 cl2) | IC50 (SHIV162P3)
CC(C)C[C@@H]1NC(=O)CNC(=O)[C@H](CC(C)C)NC(=O)[C@H](CO)NC(=O)[C@H](CO)NC(=O)[C@@H]2CSSC[C@@H](C(=O)N[C@H](C(N)=O)C(C)C)NC(=O)[C@H](C)NC(=O)[C@@H]3CSSC[C@H](NC(=O)[C@H](CCCCN)NC(=O)[C@H](Cc4c[nH]cn4)NC(=O)[C@H](CC(C)C)NC(=O)[C@H](CC(N)=O)NC(=O)CCSSC[C@H](NC(=O)[C@H](CCCNC(=N)N)NC(=O)CNC(=O)[C@H](CC(C)C)NC1=O)C(=O)N[C@@H](C)C(=O)N1CCC[C@@H]1C(=O)N[C@@H]([C@@H](C)O)C(=O)N[C@@H](Cc1ccc(OCC4CCCCC4)cc1)C(=O)N3)C(=O)N[C@@H](CCC(N)=O)C(=O)N[C@@H](CC(C)C)C(=O)N[C@@H](CCCNC(=N)N)C(=O)N2 [mCD4.2] | 24036 nM | 80 times | 5.9 nM | 2.8 nM | 155 nM | 5380 nM | 6.1 nM | 2 nM | 1.3 nM | 0.59 nM | 184 nM | 4.7 nM | 19 nM | 718 nM | > 1000 nM | 0.22 nM | 512 nM | 56 nM | 76 nM | 69 nM
CC(C)C[C@@H]1NC(=O)CNC(=O)[C@H](CC(C)C)NC(=O)[C@H](CO)NC(=O)[C@H](CCCNC(=N)N)NC(=O)[C@@H]2CSSC[C@@H](C(=O)N[C@H](C(N)=O)C(C)C)NC(=O)[C@H](C)NC(=O)[C@@H]3CSSC[C@H](NC(=O)[C@H](CCCCN)NC(=O)[C@H](Cc4c[nH]cn4)NC(=O)[C@H](CC(C)C)NC(=O)[C@H](CC(N)=O)NC(=O)CCSSC[C@H](NC(=O)[C@H](CCCNC(=N)N)NC(=O)CNC(=O)[C@H](CC(C)C)NC1=O)C(=O)N[C@@H](C)C(=O)N1CCC[C@@H]1C(=O)N[C@@H]([C@@H](C)O)C(=O)N[C@@H](Cc1ccc(OCC4CCCCC4)cc1)C(=O)N3)C(=O)N[C@@H](CCC(N)=O)C(=O)N[C@@H](CC(C)C)C(=O)N[C@@H](CCCNC(=N)N)C(=O)N2 [mCD4.3] | 15540 nM | 115 times | 6.6 nM | 3.2 nM | 204 nM | 4510 nM | 4.2 nM | 2.3 nM | 0.66 nM | 0.37 nM | 178 nM | 3.1 nM | 15 nM | 510 nM | > 1000 nM | 0.16 nM | 221 nM | 39 nM | 46 nM | 29 nM

Read-outs that look alike come from different tables or passages of the source.
